A mixed list of measured activities; the numbers were collected in NIAID ChemDB.

All rows: tests on isolated targets; organism: Herpes simplex virus 2; target: Thymidine kinase; endpoint: IC50

Blank or dashed fields: not listed here. Lines come from different laboratories, so protocols vary. ICn is the concentration giving n% inhibition.

| SMILES | strain | result |
|---|---|---|
| Cc1cn([C@H]2C[C@H](O)[C@@H](CNS(=O)(=O)CCCS(=O)(=O)O)O2)c(=O)[nH]c1=O |  | >200 µM |
| Nc1nc(=O)n([C@@H]2O[C@H](CO)[C@@H](O)[C@@H]2F)cc1/C=C/Br | G | >200 µM |
| Cc1ccc(S(=O)(=O)NC[C@H]2O[C@@H](n3cc(C)c(=O)[nH]c3=O)C[C@@H]2O)cc1 |  | 88 µM |
| C=Cc1cn([C@@H]2O[C@H](CO)[C@@H](O)[C@@H]2F)c(=O)nc1N | G | >200 µM |
| CCc1cn([C@H]2C[C@H](O)[C@@H](CNS(=O)(=O)c3ccccc3)O2)c(=O)[nH]c1=O |  | 4.6 µM |
| CCOC(=O)/C=C/c1cn([C@@H]2O[C@H](CO)[C@@H](O)[C@@H]2F)c(=O)nc1N | G | >200 µM |
| Cc1cn([C@H]2C[C@H](O)[C@@H](CNS(=O)(=O)c3ccc(Br)cc3)O2)c(=O)[nH]c1=O |  | 13 µM |
| C#Cc1cn([C@@H]2O[C@H](CO)[C@@H](O)[C@@H]2F)c(=O)nc1N | G | >200 µM |
| CCc1cn([C@H]2C[C@H](O)[C@@H](CNC(=O)COc3ccccc3)O2)c(=O)[nH]c1=O |  | 0.28 µM |
| O=c1[nH]c(=O)n([C@@H]2O[C@H](CO)[C@@H](O)[C@@H]2F)cc1/C=C/Cl | G | >200 µM |
| O=C(NC[C@H]1O[C@@H](n2cc(I)c(=O)[nH]c2=O)C[C@@H]1O)c1ccccc1 |  | 16 µM |
| CCc1cn([C@H]2C[C@H](O)[C@@H](CNC(=O)c3ccccc3)O2)c(=O)[nH]c1=O |  | 3.2 µM |
| C#C[C@H]1O[C@@H](n2cc(C)c(=O)[nH]c2=O)C[C@@H]1O | 333 | 46 µM |
| CCc1cn([C@H]2C[C@H](O)[C@@H](CNC(=O)C(C)Oc3ccccc3)O2)c(=O)[nH]c1=O |  | 0.07 µM |
| O=c1[nH]c(=O)n([C@H]2C[C@H](O)[C@@H](CO)O2)cc1C(F)(F)F |  | 2 µM |
| CCc1cn([C@H]2C[C@H](O)[C@@H](COS(=O)(=O)c3ccc(C)cc3)O2)c(=O)[nH]c1=O |  | 4.1 µM |
| CC(C)CC(=O)NC[C@H]1O[C@@H](n2cc(I)c(=O)[nH]c2=O)C[C@@H]1O |  | 8 µM |
| CCc1cn([C@H]2C[C@H](O)[C@@H](CNC(=O)[C@@H](C)Oc3ccc(Cl)cc3Cl)O2)c(=O)[nH]c1=O |  | 0.004 µM |
| Cc1cn([C@@H]2O[C@H](CO)[C@@H](O)[C@@H]2F)c(=O)nc1N | G | >200 µM |

Repeating the final 2 entries:

SMILES	strain	result
CCc1cn([C@H]2C[C@H](O)[C@@H](CNC(=O)[C@@H](C)Oc3ccc(Cl)cc3Cl)O2)c(=O)[nH]c1=O		0.004 µM
Cc1cn([C@@H]2O[C@H](CO)[C@@H](O)[C@@H]2F)c(=O)nc1N	G	>200 µM